Measured values from several laboratories, pooled; numbers as filed in NIAID ChemDB.

Shared fields: whole-cell or culture tests; species: Herpes simplex virus 2; measure: EC50

Conditions beyond the fields shown may differ between rows. ECn: concentration that inhibits the pathogen or its effect by n%. Blank or dashed fields: not listed here.

structure	strain	cells	value
COC(=O)CC(=O)O[C@@H]1C[C@@H]2[C@@H](OC(C)=O)C[C@H]3C(C)(C)CCC[C@]3(C)[C@]23CCC1(C)C3	-	VERO	15 µg/mL
COc1ccccc1-c1nc2ccccc2n1C(=O)c1ccc([N+](=O)[O-])cc1	G	-	>100 µg/mL
Nc1ncn([C@@H]2CC[C@H](CO)O2)c(=O)n1	-	-	>100 µM
O=C(c1ccc([N+](=O)[O-])cc1)n1c(-c2ccccc2Cl)nc2ccccc21	G	-	>100 µg/mL
[N-]=[N+]=N[C@H]1C[C@H](CO)S[C@@H]1n1cnc2c(N)ncnc21	-	-	>100 µg/mL
NC1=CC(N)=NS(=O)(=O)N1COCCO	G	E6SM	>400 µg/mL
[N-]=[N+]=N[C@H]1C[C@H](CO)S[C@@H]1n1cnc2c(=O)[nH]cnc21	-	-	>100 µg/mL
CC1=C[C@H](n2ccc(=O)[nH]c2=O)CC1(CO)CO	-	-	>100 µg/mL
CCCc1cn([C@@H]2O[C@H](COP(=O)(O)O)[C@@H](O)[C@H]2O)c(=O)nc1N	G	-	>400 µg/mL
CC(=O)OC[C@H]1O[C@@H](n2cc(-c3cc(-c4ccc(C(C)C)cc4)no3)c(=O)[nH]c2=O)CC[C@@H]1O	-	-	0.07 µg/mL
CC1=C[C@H](n2ccc(=O)[nH]c2=O)C[C@]1(C)CO	-	-	>100 µg/mL
CC(=O)OCCOCN1C=CC(=O)N(COCCO)S1(=O)=O	G	E6SM	>400 µg/mL
CC(=O)O[C@H]1C[C@H]2C(C)(C)CCC[C@]2(C)[C@@]23CCC(C)(C2)[C@@H](O)C[C@H]13	-	VERO	25 µg/mL
C/C(O)=C1\C(=N)N(COCCO)S(=O)(=O)N=C1N	G	E6SM	>400 µg/mL
Cc1cn([C@@H]2OC3COP(=O)(O)OC3[C@H]2O)c(=O)nc1N	G	-	>400 µg/mL
O=c1ccn(CC=C(CO)CO)c(=O)[nH]1	-	-	>100 µg/mL
CC(=O)OCCOCN1C(C)=CC(N)=[N+](c2ccccc2)S1(=O)=O	G	E6SM	>400 µg/mL
O=C(O)c1ccccc1-c1nc2ccccc2n1C(=O)c1ccc([N+](=O)[O-])cc1	G	-	>100 µg/mL
CC1=C[C@H](n2cnc3c(N)ncnc32)CC1(CO)CO	-	-	>100 µg/mL
C/C(=C\Cn1ccc(N)nc1=O)CO	-	-	>100 µg/mL
CNc1ncnc2c1ncn2[C@H]1S[C@H](CO)C[C@@H]1N=[N+]=[N-]	-	-	>100 µg/mL
O=c1[nH]c(=O)n([C@@H]2C[C@@H](O)[C@H](CO)O2)cc1I	-	-	>100 µM
CC12CC[C@]3(C1)[C@H](CC2=O)[C@@H](O)C[C@H]1C(C)(C)CCC[C@@]13C	-	VERO	10 µg/mL
CC(=O)OCCOCN1C(=O)C=CN(COCCO)S1(=O)=O	G	E6SM	>400 µg/mL
Nc1ccn([C@@H]2CC[C@H](CO)O2)c(=S)n1	-	-	>100 µM
O=C(c1ccncc1)n1c(-c2cccc(Cl)c2)nc2ccccc21	G	-	>100 µg/mL
CCc1cn([C@@H]2OC3COP(=O)(O)OC3[C@H]2O)c(=O)nc1N	G	-	>400 µg/mL
CC(=O)NC1C(O)OC(CO)C(O)C1OC1OC(C(=O)[O-])C(OC2OC(CO)C(O)C(OC3OC(C(=O)[O-])C(O)C(O)C3O)C2NC(C)=O)C(O)C1O.[Na+].[Na+]	G	-	>400 µg/mL
O=c1[nH]c(=O)n(CC=C(CO)CO)cc1I	-	-	>100 µg/mL
Nc1nc2c(ncn2COCCO)c(=O)[nH]1	-	MRC-5	5.3 µM
O=C(c1ccccc1Br)n1c(-c2ccc(O)cc2)nc2ccccc21	G	-	>100 µg/mL
C/C(=C\Cn1cc(I)c(=O)[nH]c1=O)CO	-	-	>100 µg/mL
O=C(c1ccccc1Br)n1c(-c2ccccc2[N+](=O)[O-])nc2ccccc21	G	-	>100 µg/mL
COC(=O)CC(=O)O[C@@H]1C[C@@H]2CC[C@H]3C(C)(C)CCC[C@]3(C)[C@]23CCC1(C)C3	-	VERO	15 µg/mL
O=C(c1ccc([N+](=O)[O-])cc1)n1c(-c2cccc([N+](=O)[O-])c2)nc2ccccc21	G	-	>20 µg/mL
[N-]=[N+]=N[C@@H]1C[C@@H](CO)S[C@@H]1n1cnc2c(Cl)ncnc21	-	-	>100 µg/mL
Nc1ncnc2c1ncn2[C@@H]1C[C@H](NC=O)[C@@H](O)[C@H]1O	-	HFF	>100 µg/mL
CCCCc1cn([C@@H]2OC3COP(=O)(O)OC3[C@H]2O)c(=O)nc1N	G	-	>400 µg/mL
CC(=O)OCCOCN1C=CC(=O)N(COCCOC(C)=O)S1(=O)=O	G	E6SM	>400 µg/mL
[N-]=[N+]=N[C@H]1C[C@H](CO)S[C@@H]1n1ccc(N)nc1=O	-	-	>100 µg/mL
CCc1cn([C@@H]2O[C@H](COP(=O)(O)O)[C@@H](O)[C@H]2O)c(=O)nc1N	LYONS	-	>400 µg/mL
CC/C=C\C/C=C\C/C=C\C/C=C\C/C=C\CCCC(=O)OC(CO[C@H]1O[C@H](CS(=O)(=O)O)[C@@H](O)[C@H](O)[C@H]1O)OC(=O)CCCCCCCCCCCCCCC	-	VERO	12 µg/mL
CCCCCCc1cn([C@@H]2O[C@H](COP(=O)(O)O)[C@@H](O)[C@H]2O)c(=O)nc1N	G	-	>400 µg/mL
O=C(c1ccncc1)n1c(-c2ccc([N+](=O)[O-])cc2)nc2ccccc21	G	-	>100 µg/mL
O=C(O)Cc1ccc(-c2ccccn2)cc1	G	VERO	0.1 µM
[N-]=[N+]=N[C@H]1C[C@H](CO)S[C@@H]1n1ccc(=O)[nH]c1=O	-	-	>100 µg/mL

For reference, 4 entries again:

structure,strain,cells,value
[N-]=[N+]=N[C@@H]1C[C@@H](CO)S[C@@H]1n1cnc2c(Cl)ncnc21,-,-,>100 µg/mL
CC(=O)OC[C@H]1O[C@@H](n2cc(-c3cc(-c4ccc(C(C)C)cc4)no3)c(=O)[nH]c2=O)CC[C@@H]1O,-,-,0.07 µg/mL
CCCc1cn([C@@H]2O[C@H](COP(=O)(O)O)[C@@H](O)[C@H]2O)c(=O)nc1N,G,-,>400 µg/mL
CC(=O)OCCOCN1C=CC(=O)N(COCCO)S1(=O)=O,G,E6SM,>400 µg/mL